Source: PubChem BioAssay AID504761 (Drosophila RNAi Screening Center, 2011)

Purpose: 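Insect host genes that dengue virus relies on to spread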 (primary screen)
System: D.Mel-2 cells from Drosophila
Reagent: long dsRNA against Drosophila genes
Treatment: infection with dengue virus type 2; dose and infection time not stated
Read-out: 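Cells stained for dengue envelope protein and imaged; percent of infected cells per well on duplicate plates, ranked by infection, with stained nuclei counted for cell number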
Direction: infection score: higher = more virus-infected cells; cell count: higher = more cells in the well
Active means: 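Very low infection ranking in both replicate wells (chance probability at most 0.065), then a retest showing infection dropped 1.5-fold or more at p below 0.05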
Meaning of the calls: active = confirmed: knock-down lowers infection; inactive = not picked or not confirmed
The screen tested about 22,000 reagents; below is a random part of those with a known target gene and a result. In the full data, 116 (0.52%) were called active. 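Calls depend on retest data that are not deposited; infection was ranked per plate without normalising between plates; the unit of the infection score is not given.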 The raw values are shown without normalisation. The numbers tell different reagents against one gene apart. A plus sign joins genes that one reagent is predicted to hit. Reagent sequences are not shown. Not stated in the record: the amount of reagent, the time to read-out.

The first 2 records, to show the layout:
target gene	reagent no.	infection score, replicate 1	infection score, replicate 2	cell count, replicate 1	cell count, replicate 2	outcome
CG11106	1	1.49	2.06	6632	6887	inactive
CG17260	1	1.98	2.15	6307	6466	inactive

Results, from the first entry:
target gene	reagent no.	infection score, replicate 1	infection score, replicate 2	cell count, replicate 1	cell count, replicate 2	outcome
CG11106	1	1.49	2.06	6632	6887	inactive
CG17260	1	1.98	2.15	6307	6466	inactive
CG17260	2	13		2709	365	inactive
CG30416	1	25.2	14.3	6261	6166	inactive
CG30274	1	8.45	15.8	3113	2297	inactive
CG30274	2		24.1	385	4772	inactive
UQCR-14L	1	3.18	2.22	6533	6454	inactive
UQCR-14L	2	2.32	4.74	6151	6598	inactive
UQCR-14L	3	1.73	2.43	6360	6326	inactive
CG14082	1	7.81	3.31	5813	5946	inactive
CG14082	2	1.94	3.67	6660	6651	inactive
CG5346	1	0.2	5.54	503	6573	inactive
CG5346	2	7.57	2.73	5747	5638	inactive
AstCC	1	3.27	9.83	6673	6447	inactive
CG7017	1	4.66	5.61	6607	6738	inactive
CG10254	1	24.5	7.53	5070	6944	inactive
CG10254	2			323	288	inactive
CG13744	1	9.29	19.9	6586	6071	inactive
Krn	1	1.92	0.8	6456	6645	active
CG15142	1	1.46	5.72	6625	6539	inactive
dor	1	1.5	4.95	5336	6226	inactive
dor	2	7.78	7.75	6503	6546	inactive
rn	1	1.64	2.97	6510	6926	inactive
rn	2	0.26	0.35	7010	6793	active
rn	3	9.25	6.21	5781	6422	inactive
rn	4	2.37	20.9	5699	5458	inactive
rn	5	6.67	5.53	5786	6315	inactive
rn	6	5.62	1.77	5766	6058	inactive
Gpb5	1	32.8	20.7	4081	4900	inactive
Pep	1	8.37	14.3	4431	2182	inactive
CG6621	1	7.61	4.35	6522	5885	inactive
CG6621	2	14	2.26	6386	6459	inactive
CG7568	1	6.91	1.16	4267	517	inactive
CG7568	2		10.1	364	6048	inactive
S1P	1	1.58	5.7	6465	6650	inactive
HP5	1	3.13	14.2	6712	6106	inactive
HP5	2	10.7	6.3	6833	5840	inactive
CG15625	1	4.69	3.04	2241	6021	inactive
CG15625	2	9.27	8.88	1338	5971	inactive
r-l	1	6.63	2.14	6452	6355	inactive
r-l	2	1.01	1.45	6142	6812	inactive
Arf4	1	5.98	0.75	2758	4828	inactive
Arf4	2	10.4	6.94	4814	1830	inactive
koi	1	12.9	29.7	6222	4597	inactive
Btnd	1	3.52	3.6	6213	6057	inactive
Btnd	2	1.61	4.75	5974	6362	inactive
Gcn2	1	0.63	2.03	6064	6643	inactive
Pvf2	1			437	364	inactive
Pvf2	2	3.48		1722	431	inactive
wdp	1	14.2	34.8	6105	5787	inactive
wdp	2			254	279	inactive
fzr	1	9.92	24.6	5807	6445	inactive
fzr	2	24	12.6	5561	1663	inactive
Dbct	1	9.02	4.6	6321	6088	inactive
Dbct	2	1.4	6.93	6715	6318	inactive
Lamp1	1		19.1	470	4813	inactive
Ir51a	1	5.72	8.95	6272	6439	inactive
14-3-3epsilon	1	3.03	12.2	6312	6321	inactive
CG8774	1	14.8	25.3	5932	5547	inactive
vkg	1	1.42	0.64	6064	6519	inactive
Tim17a1	1	6.92	7.18	6677	7030	inactive
CG42808 + CG42807	1	13.2	5.29	5860	6158	inactive
CG42808 + CG42807	2	14	6.11	5745	6191	inactive
del	1	27.2	42.8	5526	4898	inactive
Mst98Ca	1	3.57	2.17	6477	7139	inactive
ATPsynCF6L	1	2.23	1.37	5926	5997	inactive
ATPsynCF6L	2	15	4.93	6837	6757	inactive
CG34444	1	34.3	11.6	5773	6737	inactive
Hexim	1	6.93	6.38	6350	6552	inactive
obst-B	1	15	13.1	6471	6428	inactive
dbo	1	1.83	2.62	5914	6221	inactive
pasi1	1	4.79	9.28	6093	6975	inactive
pasi1	2	2.09	1.66	6472	6429	inactive
pasi1	3	0.74	0.76	6505	6278	inactive
